Values from PubChem BioAssay AID1259414 (Drosophila RNAi Screening Center, 2018).

Screen: 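Fly genes that alter Wolbachia amount inside host cells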 (primary screen)
Cells: Drosophila JW18 cells infected with Wolbachia
Reagent: long dsRNA against Drosophila genes, 0.25 µg dsRNA per well of a 384-well plate
Time to read-out: 5 days
Treatment: cells persistently infected with Wolbachia before knock-down; no added drug
Detection: 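Imaged fluorescence in situ signal for Wolbachia 23S rRNA per DAPI-counted host cell, given as a robust z-score within each plate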
Reading the numbers: Wolbachia per cell robust z: higher = more Wolbachia per host cell than the plate typical
Active means: 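Active if absolute robust z reaches 1.5 in two or more of three replicates, leaving out multi- or no-target dsRNAs, genes unexpressed in JW18 and A1 wells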
The deposit covers about 24,000 reagents; below is an unselected part of those that have a named target and a result. In the full data, about 1,210 (5%) were called active. 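Inactive calls also include excluded dsRNAs with several or no targets, genes unexpressed in JW18, and well A1, regardless of score.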 The numbers tell different reagents against one gene apart. Names joined by + are all predicted targets of the reagent.

target gene	reagent	Wolbachia per cell robust z, rep 1	Wolbachia per cell robust z, rep 2	Wolbachia per cell robust z, rep 3	Call
kermit	1	1.38	0.203	0.0876	inactive
kermit	2	0.441	1.73	0.397	inactive
kek3	1	-5.19	-1.61	0.322	inactive
kek3	2	0.524	0.0115	0.993	inactive
kek3	3	1.04	-0.184	-0.412	inactive
wls	1	-2.57	0.689	-0.393	inactive
wls	2	-0.246	-0.533	-1.74	inactive
Sox14	1	-2.09	0.063	-0.877	inactive
Sox14	2	0.438	-0.17	1.58	inactive
CG33998	1	1.19	-4.1	0.767	inactive
CG10737	1	-0.879	0.598	1.03	inactive
CG10737	2	-0.5	-0.103	-6.92	inactive
CG33672 + Mvk + spt4	1	-0.547	-0.433	0.159	inactive
CG6565	1	0.762	-1.16	1.41	inactive
CG3557	1	-0.297	0.739	-0.674	inactive
CG34396	1	-4.45	-0.159	0.156	inactive
CG34396	2	-4.72	-0.415	-0.788	inactive
CG34396	3	-0.983	-1.85	-1.04	inactive
Edem1	1	0.3	0.224	-0.0856	inactive
d-cup	1	0.56	-0.00999	-0.0121	inactive
CG13239	1	-0.112	-0.981	0.886	inactive
GNBP2	1	-1.98	-0.976	0.0128	inactive
Spt6	1	4.08	0.959	2.23	active
robl37BC	1	1.01	1	-0.408	inactive
beat-IV	1	0.137	-1.44	-1.74	inactive
beat-IV	2	-2.74	0.0482	0.571	inactive
st	1	0.0903	0.273	-1.94	inactive
st	2	-2.01	-0.934	-4.37	inactive
CG13390	1	0.413	1.16	-1.34	inactive
CG13390	2	-0.0409	-0.478	-0.101	inactive
CG13390	3	-1.08	-0.74	-0.515	inactive
CG31752	1	-2.57	-0.453	0.65	inactive
mahe	1	0.381	-0.921	-0.662	inactive
mahe	2	-0.0373	-6.45	-0.913	inactive
DppIII	1	-1.31	-3.16	-1.51	active
DppIII	2	0.45	0.54	-0.572	inactive
eEF2	1	1.2	1.34	1.39	inactive
CG43117	1	-0.519	-1.29	-1.26	inactive
CG43117	2	0.473	1.79	0.756	inactive
Ciz1	1	0.453	0.723	0.895	inactive
Ciz1	2	1.94	0.0965	1.74	active
VhaM9.7-b	1	0.632	0.942	-1.42	inactive
scaf6	1	-0.0812	-0.381	0.931	inactive
scaf6	2	0.882	0.649	-0.267	inactive
CG18814	1	-0.64	0.725	-0.322	inactive
oaf	1	-2.71	-1.79	0.862	active
CG7582	1	-0.338	-0.982	-2.46	inactive
CG5902	1	-0.659	-0.735	-5.26	inactive
CG34164	1	-1.09	0.727	-0.913	inactive
Mnt	1	0.458	0.621	-0.371	inactive
Mnt	2	1.25	-3.31	1.27	inactive
CG1138	1	-7.83	-1.29	-1.72	inactive
asRNA:CR42871 + CG6661	1	0.386	0.123	-0.0886	inactive
CG6830	1	0.944	1.35	-0.294	inactive
CG6830	2	-0.754	0.335	0.666	inactive
Sp212	1	-0.668	-1.13	-0.521	inactive
Sp212	2	-0.366	-0.292	0.926	inactive
alpha-PheRS	1	0.0271	-0.426	-0.465	inactive
alpha-PheRS	2	-0.63	-1.1	-0.825	inactive
Sry-alpha	1	0.0234	-0.14	-0.951	inactive
Sry-alpha	2	-1.89	-1.81	-0.358	inactive
CG15082	1	-2.52	-0.197	-2.91	active
CG15082	2	-0.577	-0.78	-0.742	inactive
CG6937	1	0.924	-0.0573	0.0163	inactive
CG6937	2	0.421	0.128	0.59	inactive
CG3502	1	-0.0777	0.87	-2.99	inactive
mt:ND4	1	-0.0737	0.0679	-0.449	inactive
LysD + LysC	1	0.0666	-0.932	-0.642	inactive
LysD + LysC	2	0.195	0.542	1.21	inactive

Part of the list above, set out differently.
CG15082 #2
- Wolbachia per cell robust z, rep 1: -0.577
- Wolbachia per cell robust z, rep 2: -0.78
- Wolbachia per cell robust z, rep 3: -0.742
- Call: inactive

CG6937 #1
- Wolbachia per cell robust z, rep 1: 0.924
- Wolbachia per cell robust z, rep 2: -0.0573
- Wolbachia per cell robust z, rep 3: 0.0163
- Call: inactive

CG6937 #2
- Wolbachia per cell robust z, rep 1: 0.421
- Wolbachia per cell robust z, rep 2: 0.128
- Wolbachia per cell robust z, rep 3: 0.59
- Call: inactive

CG3502
- Wolbachia per cell robust z, rep 1: -0.0777
- Wolbachia per cell robust z, rep 2: 0.87
- Wolbachia per cell robust z, rep 3: -2.99
- Call: inactive

mt:ND4
- Wolbachia per cell robust z, rep 1: -0.0737
- Wolbachia per cell robust z, rep 2: 0.0679
- Wolbachia per cell robust z, rep 3: -0.449
- Call: inactive

LysD + LysC #1
- Wolbachia per cell robust z, rep 1: 0.0666
- Wolbachia per cell robust z, rep 2: -0.932
- Wolbachia per cell robust z, rep 3: -0.642
- Call: inactive
